The results in this text go back to patent US7578996B2, “Cetylpyridinium chloride as an antimicrobial agent in ophthalmic compositions” (Advanced Medical Optics, Inc., priority 2004, dated 2009).

A short description of data set [1]: Antimicrobial uptake and release by contact lens, Acuvue.
Data set [2] is described as follows: Antimicrobial uptake and release by contact lens, Purevision.
[3] abbreviates: cycle 1, 2 ml saline for 9 hours.
[4] abbreviates: cycle 1, 3.5 ml test solution for 15 hours.
Setting [5] is: cycle 2, 2 ml saline for 9 hours.
Where [6] appears, read: cycle 2, 3.5 ml test solution for 15 hours.
The mark [7] stands for this setting: cycle 3, 2 ml saline for 9 hours.
The mark [8] stands for this setting: cycle 3, 3.5 ml test solution for 15 hours.

Structures are written as SMILES.

On to `CCCCCCCCCCCCCC(=O)NCCCN(C)C` [MAPD, myristamidopropyl dimethylamine], for which the Release from lens in data set [1] (setting [3]) worked out at 2.5 µg; in data set [1] (setting [5]) it was 3.9 µg; in data set [1] (setting [7]), 3.6 µg; in data set [2] (setting [3]), 0.2 µg; in data set [2] (setting [5]), 0.2 µg; in data set [2] (setting [7]) it was 0.6 µg. Also, the “Accumulation in Lens” value in data set [1] (setting [4]) was found to be 7.9 µg; in data set [1] (setting [6]) it was 10.1 µg; in data set [1] (setting [8]), 12.4 µg; in data set [2] (setting [4]) it was 18.3 µg; in data set [2] (setting [6]), 33.9 µg; in data set [2] (setting [8]) it was 48.1 µg.
